Measured values from several laboratories, pooled; numbers as filed in NIAID ChemDB.

Common to all: whole-cell or culture tests

Lines come from different laboratories, so protocols vary. Zone: diameter of growth inhibition. A number after MIC or MFC names an inhibition level or a share of isolates. Percent inhibition refers to the dose given; in toxicity tests it is the harm to the cells.

{"compound": "COc1ccc(C=NNC(=O)c2snnc2C(F)(F)F)cc1", "strain or isolate": "NCIM 3462", "dose": "150 µg/mL", "organism": "Candida rugosa", "read-out": "zone", "read by": "agar diffusion / agar", "value": "0 mm"}
{"compound": "CC1CC(=O)N(Cc2ccccc2)C1=O", "strain or isolate": "CCC 134-2000", "organism": "Candida lusitaniae", "read-out": "MIC", "read by": "broth dilution / turbidity", "value": "125 µg/mL"}
{"compound": "O=C(CCn1ccnc1)c1ccc(Br)cc1", "strain or isolate": "RTCC1248", "organism": "Candida guilliermondii", "read-out": "MIC", "read by": "broth dilution", "value": "32 µg/mL"}
{"compound": "O=C(NN=Cc1ccc(O)cc1)c1snnc1C(F)(F)F", "strain or isolate": "NCIM 3462", "dose": "100 µg/mL", "organism": "Candida rugosa", "read-out": "zone", "read by": "agar diffusion / agar", "value": "0 mm"}
{"compound": "CCC(C)n1ncn(-c2ccc(N3CCN(c4ccc(OC[C@H]5CO[C@](Cn6cncn6)(c6ccc(Cl)cc6Cl)O5)cc4)CC3)cc2)c1=O", "strain or isolate": "fluconazole-sensitive", "organism": "Candida spp.", "read-out": "MIC50", "read by": "broth dilution", "value": "0.13 µg/mL"}
{"compound": "CC(C)(O)c1cn(-c2ccc([N+](=O)[O-])cc2)nn1", "strain or isolate": "URM 934", "dose": "2048 µg/mL", "organism": "Candida krusei", "read-out": "inhibition", "read by": "broth dilution", "value": "0%"}
{"compound": "OC(CCn1ccnc1)c1cccc(C(O)c2ccc(Cl)cc2)c1", "strain or isolate": "RTCC1248", "organism": "Candida guilliermondii", "read-out": "MIC", "read by": "broth dilution", "value": ">64 µg/mL"}
{"compound": "O=C(NN=Cc1ccccc1)c1snnc1C(F)(F)F", "strain or isolate": "NCIM 3462", "dose": "150 µg/mL", "organism": "Candida rugosa", "read-out": "zone", "read by": "agar diffusion / agar", "value": "6 mm"}
{"compound": "C=CCc1ccc(OC)c(OC)c1", "strain or isolate": "2803", "organism": "Candida tropicalis", "read-out": "MIC90", "read by": "turbidity", "value": "340 µg/mL"}
{"compound": "Cc1ccc(-n2cc(C(C)(C)O)nn2)cc1C", "strain or isolate": "URM 4262", "dose": "2048 µg/mL", "organism": "Candida tropicalis", "read-out": "inhibition", "read by": "broth dilution", "value": "0%"}
{"compound": "CC1CC(=O)N(c2ccc(Br)cc2)C1=O", "strain or isolate": "CCC 124-2000", "organism": "Candida parapsilosis", "read-out": "MIC", "read by": "broth dilution / turbidity", "value": "250 µg/mL"}
{"compound": "CC(=O)OC[C@H]1O[C@@H](O[C@@H]2[C@@H](N=[N+]=[N-])[C@H](O)[C@H](O)[C@H]3OC(C)(C)O[C@H]32)[C@H](OC(C)=O)[C@@H](OC(C)=O)[C@H]1OC(C)=O", "strain or isolate": "ATCC 10231", "dose": "62.5 µg/mL", "organism": "Candida albicans", "read-out": "inhibition", "read by": "broth dilution / turbidity", "value": "20.01%"}
{"compound": "CCC(C)CC(C)CCCCCCCCC(=O)N[C@H]1C[C@@H](O)[C@H](NCCN)NC(=O)[C@@H]2[C@@H](O)CCN2C(=O)[C@H]([C@H](O)CCN)NC(=O)[C@H]([C@H](O)[C@@H](O)c2ccc(O)cc2)NC(=O)[C@@H]2C[C@@H](O)CN2C(=O)[C@H]([C@@H](C)O)NC1=O", "strain or isolate": "8661", "organism": "Candida glabrata", "read-out": "MIC", "read by": "broth dilution", "value": "1 µg/mL"}
{"compound": "CC(C)(O)c1cn(-c2cccc3ccccc23)nn1", "strain or isolate": "URM 4608", "dose": "2048 µg/mL", "organism": "Candida parapsilosis", "read-out": "inhibition", "read by": "broth dilution", "value": "0%"}
{"compound": "CC[C@@H]([C@H](C)O)n1ncn(-c2ccc(N3CCN(c4ccc(OC[C@@H]5CO[C@@](Cn6cncn6)(c6ccc(F)cc6F)C5)cc4)CC3)cc2)c1=O", "strain or isolate": "8659", "organism": "Candida glabrata", "read-out": "MIC", "read by": "broth dilution", "value": "1 µg/mL"}
{"compound": "O=C(CCn1ccnc1)c1ccc2ccccc2c1", "strain or isolate": "RTCC1248", "organism": "Candida guilliermondii", "read-out": "MIC", "read by": "broth dilution", "value": "64 µg/mL"}
{"compound": "O=C(NN=Cc1ccco1)c1snnc1C(F)(F)F", "strain or isolate": "NCIM 3462", "dose": "100 µg/mL", "organism": "Candida rugosa", "read-out": "zone", "read by": "agar diffusion / agar", "value": "0 mm"}
{"compound": "Nc1ncccc1-c1cc(Cc2ccc(COc3ccccn3)cc2)no1", "organism": "Candida guilliermondii", "read-out": "MIC50", "read by": "broth dilution", "value": "<0.008 µg/mL"}
{"compound": "CC(C)(O)c1cn(-c2ccccc2)nn1", "strain or isolate": "URM 4804", "dose": "2048 µg/mL", "organism": "Candida parapsilosis", "read-out": "inhibition", "read by": "broth dilution", "value": "0%"}
{"compound": "O=C(NN=C1CCCC1)c1snnc1C(F)(F)F", "strain or isolate": "NCIM 3462", "dose": "150 µg/mL", "organism": "Candida rugosa", "read-out": "zone", "read by": "agar diffusion / agar", "value": "0 mm"}
{"compound": "Cc1ccccc1N1C(=O)CC(C)C1=O", "strain or isolate": "CCC 124-2000", "organism": "Candida parapsilosis", "read-out": "MIC", "read by": "broth dilution / turbidity", "value": "250 µg/mL"}
{"compound": "NCCCC[C@H](NC(=O)[C@@H](N)CCCCN)C(=O)N[C@@H](CCC(N)=O)C(=O)N[C@@H](CCCN=C(N)N)C(=O)O", "strain or isolate": "ATCC 10231", "dose": "200 µM", "organism": "Candida albicans", "read-out": "inhibition", "value": "6%"}
{"compound": "C[C@@H]1C(=O)N(CCc2ccccc2)C(=O)[C@@H]1C", "strain or isolate": "CCC 124-2000", "organism": "Candida parapsilosis", "read-out": "MIC", "read by": "broth dilution / turbidity", "value": "62.5 µg/mL"}
{"compound": "O=C(CCn1ccnc1)c1cccc(O)c1", "strain or isolate": "RTCC 1377", "organism": "Candida guilliermondii", "read-out": "MIC", "read by": "broth dilution", "value": ">64 µg/mL"}

The first 3 rows once more:

{"compound": "COc1ccc(C=NNC(=O)c2snnc2C(F)(F)F)cc1", "strain or isolate": "NCIM 3462", "dose": "150 µg/mL", "organism": "Candida rugosa", "read-out": "zone", "read by": "agar diffusion / agar", "value": "0 mm"}
{"compound": "CC1CC(=O)N(Cc2ccccc2)C1=O", "strain or isolate": "CCC 134-2000", "organism": "Candida lusitaniae", "read-out": "MIC", "read by": "broth dilution / turbidity", "value": "125 µg/mL"}
{"compound": "O=C(CCn1ccnc1)c1ccc(Br)cc1", "strain or isolate": "RTCC1248", "organism": "Candida guilliermondii", "read-out": "MIC", "read by": "broth dilution", "value": "32 µg/mL"}